Experiments:
[1] = Drug degradation in human DU145 cell culture medium assessed as deltaRT formation at 20 ug after 6 hrs by MALDI-TOF analysis; settings: du-145, 6 h
[2] = Drug degradation in human DU145 cell culture medium assessed as deltaKKRT formation at 20 ug after 6 hrs by MALDI-TOF analysis; settings: du-145, 6 h

For `CC(=O)NN(CCCN=C(N)N)CC(=O)N[C@@H](C)C(=O)N[C@@H](CCCN=C(N)N)C(=O)N[C@@H](CCCN=C(N)N)C(=O)N[C@@H](CCCN=C(N)N)C(=O)N[C@@H](CCCCN)C(=O)N[C@@H](CCCCN)C(=O)NN(CCCN=C(N)N)CC(=O)N[C@H](C(N)=O)[C@@H](C)O`, the Stability [1] was “Unstable” and the Stability [2] was “Unstable”.
